From PMC11201590, “Enhancing Selective Antimicrobial and Antibiofilm Activities of Melittin through 6-Aminohexanoic Acid Substitution” (Biomolecules, 2024) come the findings set out here.

This data set deals with sheep red blood cells (sRBCs). Kind of data set: Hemolytic activity. The data set is classed as cell-based. Particulars: 37 °C, one hour; for hemolysis: 64 µM peptide, sRBCs, 0.1% Triton X-100 = 100%; for HC10, concentration that causes 10% hemolysis of sRBC: 4% v/v sRBCs in PBS, absorbance 405 nm. Here is the method: The hemolytic activity of peptides was assessed by measuring the release of hemoglobin from sheep red blood cells (sRBCs), as described previously. To create a 4% v/v erythrocyte dilution, fresh sRBCs were washed with phosphate-buffered saline (PBS), centrifuged, and then resuspended in PBS. Next, 100 μL of serially diluted peptides was added to a sterile 96-well plate, followed by the addition of 100 µL of sRBCs. The plate was then incubated at 37 °C for one hour. After incubation, the plate was centrifuged at 1000 relative centrifugal force (RCF), and the supernatant was transferred to a new 96-well plate. Hemoglobin release was measured at 405 nm using a microplate ELISA reader. A total of 0.1% Triton X-100 treatment was utilized to induce 100% hemolysis, while PBS was employed as the reference for 0% hemolysis. The percentage of hemolytic activity was determined using the formula % Hemolysis = [(Abs in peptide solution − Abs in PBS)/(Abs of 0.1% Triton X-100 − Abs of PBS)] × 100.

Turning to `CC[C@H](C)[C@H](NC(=O)CN)C(=O)NCC(=O)N[C@@H](C)C(=O)N[C@H](C(=O)NCCCCCC(=O)N[C@@H](CCCCN)C(=O)N[C@H](C(=O)N[C@@H](CC(C)C)C(=O)N[C@H](C(=O)N[C@H](C(=O)NCC(=O)N[C@@H](CC(C)C)C(=O)N1CCC[C@H]1C(=O)N[C@@H](C)C(=O)N[C@@H](CC(C)C)C(=O)N[C@H](C(=O)N[C@@H](CO)C(=O)N[C@@H](Cc1c[nH]c2ccccc12)C(=O)N[C@H](C(=O)N[C@@H](CCCCN)C(=O)N[C@@H](CCCNC(=N)N)C(=O)N[C@@H](CCCCN)C(=O)N[C@@H](CCCNC(=N)N)C(=O)N[C@@H](CCC(N)=O)C(=O)N[C@@H](CCC(N)=O)C(N)=O)[C@@H](C)CC)[C@@H](C)CC)[C@@H](C)O)[C@@H](C)O)C(C)C)C(C)C` [Mel-LX1], the hemolysis is 11% and the “HC10, concentration that causes 10% hemolysis of sRBC” value was determined as 64 µM.

Turning to `CC[C@H](C)[C@H](NC(=O)CN)C(=O)NCC(=O)N[C@@H](C)C(=O)N[C@H](C(=O)N[C@@H](CC(C)C)C(=O)N[C@@H](CCCCN)C(=O)N[C@H](C(=O)NCCCCCC(=O)N[C@H](C(=O)N[C@H](C(=O)NCC(=O)N[C@@H](CC(C)C)C(=O)N1CCC[C@H]1C(=O)N[C@@H](C)C(=O)N[C@@H](CC(C)C)C(=O)N[C@H](C(=O)N[C@@H](CO)C(=O)N[C@@H](Cc1c[nH]c2ccccc12)C(=O)N[C@H](C(=O)N[C@@H](CCCCN)C(=O)N[C@@H](CCCNC(=N)N)C(=O)N[C@@H](CCCCN)C(=O)N[C@@H](CCCNC(=N)N)C(=O)N[C@@H](CCC(N)=O)C(=O)N[C@@H](CCC(N)=O)C(N)=O)[C@@H](C)CC)[C@@H](C)CC)[C@@H](C)O)[C@@H](C)O)C(C)C)C(C)C` [Mel-LX2], the hemolysis amounted to 6% and the “HC10, concentration that causes 10% hemolysis of sRBC” value is 128 µM.

For the compound `CC[C@H](C)[C@H](NC(=O)CN)C(=O)NCC(=O)N[C@@H](C)C(=O)N[C@H](C(=O)N[C@@H](CC(C)C)C(=O)N[C@@H](CCCCN)C(=O)N[C@H](C(=O)N[C@@H](CC(C)C)C(=O)N[C@H](C(=O)N[C@H](C(=O)NCC(=O)NCCCCCC(=O)N1CCC[C@H]1C(=O)N[C@@H](C)C(=O)N[C@@H](CC(C)C)C(=O)N[C@H](C(=O)N[C@@H](CO)C(=O)N[C@@H](Cc1c[nH]c2ccccc12)C(=O)N[C@H](C(=O)N[C@@H](CCCCN)C(=O)N[C@@H](CCCNC(=N)N)C(=O)N[C@@H](CCCCN)C(=O)N[C@@H](CCCNC(=N)N)C(=O)N[C@@H](CCC(N)=O)C(=O)N[C@@H](CCC(N)=O)C(N)=O)[C@@H](C)CC)[C@@H](C)CC)[C@@H](C)O)[C@@H](C)O)C(C)C)C(C)C` [Mel-LX3], the hemolysis amounted to 27% and the “HC10, concentration that causes 10% hemolysis of sRBC” value was 64 µM.

Regarding `CC[C@H](C)[C@H](NC(=O)CN)C(=O)NCC(=O)N[C@@H](C)C(=O)N[C@H](C(=O)N[C@@H](CC(C)C)C(=O)N[C@@H](CCCCN)C(=O)N[C@H](C(=O)N[C@@H](CC(C)C)C(=O)N[C@H](C(=O)N[C@H](C(=O)NCC(=O)N[C@@H](CC(C)C)C(=O)N1CCC[C@H]1C(=O)N[C@@H](C)C(=O)NCCCCCC(=O)N[C@H](C(=O)N[C@@H](CO)C(=O)N[C@@H](Cc1c[nH]c2ccccc12)C(=O)N[C@H](C(=O)N[C@@H](CCCCN)C(=O)N[C@@H](CCCNC(=N)N)C(=O)N[C@@H](CCCCN)C(=O)N[C@@H](CCCNC(=N)N)C(=O)N[C@@H](CCC(N)=O)C(=O)N[C@@H](CCC(N)=O)C(N)=O)[C@@H](C)CC)[C@@H](C)CC)[C@@H](C)O)[C@@H](C)O)C(C)C)C(C)C` [Mel-LX4], the hemolysis is reported as 3% and the “HC10, concentration that causes 10% hemolysis of sRBC” value worked out at 128 µM.

For the compound `CC[C@H](C)[C@H](NC(=O)CN)C(=O)NCC(=O)N[C@@H](C)C(=O)N[C@H](C(=O)NCCCCCC(=O)N[C@@H](CCCCN)C(=O)N[C@H](C(=O)NCCCCCC(=O)N[C@H](C(=O)N[C@H](C(=O)NCC(=O)NCCCCCC(=O)N1CCC[C@H]1C(=O)N[C@@H](C)C(=O)NCCCCCC(=O)N[C@H](C(=O)N[C@@H](CO)C(=O)N[C@@H](Cc1c[nH]c2ccccc12)C(=O)N[C@H](C(=O)N[C@@H](CCCCN)C(=O)N[C@@H](CCCNC(=N)N)C(=O)N[C@@H](CCCCN)C(=O)N[C@@H](CCCNC(=N)N)C(=O)N[C@@H](CCC(N)=O)C(=O)N[C@@H](CCC(N)=O)C(N)=O)[C@@H](C)CC)[C@@H](C)CC)[C@@H](C)O)[C@@H](C)O)C(C)C)C(C)C` [Mel-LX5], the hemolysis was 2% and the “HC10, concentration that causes 10% hemolysis of sRBC” value is 128 µM.

As to `CC[C@H](C)[C@H](NC(=O)CN)C(=O)NCC(=O)N[C@@H](C)C(=O)N[C@H](C(=O)N[C@@H](CC(C)C)C(=O)N[C@@H](CCCCN)C(=O)N[C@H](C(=O)N[C@@H](CC(C)C)C(=O)N[C@H](C(=O)N[C@H](C(=O)NCC(=O)N[C@@H](CC(C)C)C(=O)N1CCC[C@H]1C(=O)N[C@@H](C)C(=O)N[C@@H](CC(C)C)C(=O)N[C@H](C(=O)N[C@@H](CO)C(=O)N[C@@H](Cc1c[nH]c2ccccc12)C(=O)N[C@H](C(=O)N[C@@H](CCCCN)C(=O)N[C@@H](CCCNC(=N)N)C(=O)N[C@@H](CCCCN)C(=O)N[C@@H](CCCNC(=N)N)C(=O)N[C@@H](CCC(N)=O)C(=O)N[C@@H](CCC(N)=O)C(N)=O)[C@@H](C)CC)[C@@H](C)CC)[C@@H](C)O)[C@@H](C)O)C(C)C)C(C)C` [Melittin], the “HC10, concentration that causes 10% hemolysis of sRBC” value was 2 µM.
